Measured values from several laboratories, pooled; numbers as filed in NIAID ChemDB.

Common to all: growth or infection tests; species: Herpes simplex virus 1

Lines come from different laboratories, so protocols vary. ECn is the concentration giving n% inhibition of infection, replication or growth. Two numbers with a dash give a range or band.

{"compound": "O=c1c2ncn(COCCO)c2[nH]c2ncc(C(c3ccccc3)(c3ccccc3)c3ccccc3)n12", "read by": "cytopathic effect", "strain": "TK-deficient acyclovir-resistant", "read-out": "EC50", "value": ">16 µg/mL"}
{"compound": "Nc1nc2c(ncn2COC(CO)CO)c(=O)[nH]1", "read by": "plaque count", "read-out": "EC50", "cell line": "VERO", "value": "0.57 µM"}
{"compound": "OC[C@H]1O[C@@H](c2ccc(F)cc2F)C[C@@H]1O", "read by": "cytopathic effect", "strain": "VMW 1837", "read-out": "EC50", "cell line": "E6SM", "value": ">400 µg/mL"}
{"compound": "Nc1ccnc(O[C@H]2CO[C@H](CO)[C@@H](O)C2)n1", "read by": "cytopathic effect", "strain": "KOS", "read-out": "EC50", "cell line": "E6SM", "value": ">20 µg/mL"}
{"compound": "Nc1nc2c(ncn2COCCO)c(=O)[nH]1", "read by": "cytopathic effect", "strain": "KOS", "read-out": "EC50", "cell line": "PRK", "value": "0.2 µg/mL"}
{"compound": "Nc1nc(N)c2ncn([C@H]3CO[C@H](CO)[C@@H](O)C3)c2n1", "read by": "cytopathic effect", "strain": "TK-/TK+ (VMW 1837)", "read-out": "EC50", "cell line": "E6SM", "value": ">20 µg/mL"}
{"compound": "O=c1[nH]c(=O)n([C@H]2C[C@H](O)[C@@H](CO)O2)cc1/C=C/Br", "read by": "cytopathic effect", "strain": "5 (PAA-resistant)", "read-out": "EC50", "cell line": "PRK", "value": "0.02 µg/mL"}
{"compound": "Nc1nc2c(ncn2CCC(CO)CO)c(=O)[nH]1", "read by": "plaque count", "strain": "5 isolates", "read-out": "EC50", "cell line": "MRC-5", "value": "0.84 µg/mL"}
{"compound": "O=c1c2ncn(COC(CO)CO)c2[nH]c2nccn12", "read by": "cytopathic effect", "strain": "TK-deficient acyclovir-resistant", "read-out": "EC50", "value": "400 µg/mL"}
{"compound": "CC1(CO)CCC(Cn2cnc3c(=O)[nH]c(N)nc32)C1(C)C", "read by": "cytopathic effect", "strain": "TK-/B2006", "read-out": "EC50", "cell line": "E6SM", "value": ">400 µg/mL"}
{"compound": "Nc1nc(=O)n([C@@H]2O[C@H](CO)[C@@H](O)[C@@H]2F)cc1I", "read by": "cytopathic effect", "strain": "KOS", "read-out": "EC50", "cell line": "T-21", "value": "0.02 µg/mL"}
{"compound": "Cc1[nH]c2nc3c(ncn3COCCO[Si](C)(C)C(C)(C)C)c(=O)n2c1C(c1ccccc1)(c1ccccc1)c1ccccc1", "read by": "cytopathic effect", "strain": "TK-deficient acyclovir-resistant", "read-out": "EC50", "value": ">10 µg/mL"}
{"compound": "CC1(CO)CCC(Cn2nnc3c(N)nc(N)nc32)C1(C)C", "read by": "cytopathic effect", "strain": "TK-/B2006", "read-out": "EC50", "cell line": "E6SM", "value": "150 µg/mL"}
{"compound": "Nc1nc2c(ncn2COCCO)c(=O)[nH]1", "read by": "cytopathic effect", "strain": "X17626 (acyclovir-susceptible)", "read-out": "EC50", "cell line": "HFF", "value": "1 µg/mL"}
{"compound": "COc1ccc(-c2cn3c(=O)c4ncn(COC(CO)CO)c4nc3[nH]2)cc1", "read by": "cytopathic effect", "strain": "McIntyre", "read-out": "EC50", "value": "0.005 µg/mL"}
{"compound": "O=c1[nH]c(=O)n([C@@H]2O[C@H](CO)[C@@H](O)[C@@H]2O)cc1/C=C/Br", "read by": "cytopathic effect", "strain": "KOS", "read-out": "EC50", "cell line": "ESM", "value": "0.007 µg/mL"}
{"compound": "OC[C@H]1O[C@H](c2cc(I)c(F)cc2F)C[C@@H]1O", "read by": "cytopathic effect", "strain": "F", "read-out": "EC50", "cell line": "E6SM", "value": ">400 µg/mL"}
{"compound": "Cc1cn([C@H]2CO[C@H](CO)[C@@H](O)C2)c(=O)[nH]c1=O", "read by": "cytopathic effect", "strain": "TK-/B2006", "read-out": "EC50", "cell line": "E6SM", "value": ">20 µg/mL"}
{"compound": "OC[C@H]1O[C@@H](c2cc(Cl)c(F)cc2F)C[C@@H]1O", "read by": "cytopathic effect", "strain": "KOS", "read-out": "EC50", "cell line": "E6SM", "value": ">400 µg/mL"}
{"compound": "Cc1cn([C@@H]2O[C@H](CO)[C@H]2CO)c(=O)[nH]c1=O", "read by": "plaque count", "strain": "11359 (TK-)", "read-out": "EC50", "cell line": "HFF", "value": ">100 µg/mL"}
{"compound": "O=c1[nH]c(=O)n([C@H]2C[C@H](O)[C@@H](CO)O2)cc1/C=C/Br", "read by": "cytopathic effect", "strain": "KOS", "read-out": "EC50", "cell line": "PRK", "value": "0.007 µg/mL"}
{"compound": "Nc1cc([C@H]2C[C@H](O)[C@@H](CO)O2)c(F)cc1F", "read by": "cytopathic effect", "strain": "KOS/ACV-R", "read-out": "EC50", "cell line": "E6SM", "value": ">400 µg/mL"}
{"compound": "Nc1ccn([C@@H]2O[C@H](CO)[C@@H](O)[C@@H]2O)c(=O)n1", "strain": "KET", "read-out": "MIC", "value": "1.1–2.2 µg/mL"}
{"compound": "OC[C@H]1O[C@@H](c2cc(I)c(F)cc2F)C[C@@H]1O", "read by": "cytopathic effect", "strain": "KOS", "read-out": "EC50", "cell line": "E6SM", "value": ">400 µg/mL"}
{"compound": "Nc1ccn([C@@H]2O[C@H](CO)[C@@H](O)[C@@H]2O)c(=O)n1", "read by": "cytopathic effect", "strain": "KOS", "read-out": "EC50", "cell line": "HSF", "value": "0.04 µg/mL"}
{"compound": "CC1(CO)CCC(Cn2cnc3c(N)nc(N)nc32)C1(C)C", "read by": "cytopathic effect", "strain": "KOS", "read-out": "EC50", "cell line": "E6SM", "value": "150 µg/mL"}
{"compound": "OC[C@H]1O[C@@H](c2cc(Br)c(F)cc2F)C[C@@H]1O", "read by": "cytopathic effect", "strain": "VMW 1837", "read-out": "EC50", "cell line": "E6SM", "value": ">400 µg/mL"}
{"compound": "Nc1nc2c(ncn2CCCCO)c(=O)[nH]1", "read by": "plaque count", "strain": "C42", "read-out": "EC50", "cell line": "HEL", "value": "0.1 µM"}
{"compound": "CCc1cn([C@H]2C[C@H](O)[C@@H](COP(=O)(O)O)O2)c(=O)[nH]c1=O", "read by": "cytopathic effect", "strain": "B2006 (TK-)", "read-out": "EC50", "cell line": "BSC-1", "value": ">820 µg/mL"}
{"compound": "Nc1nc2c(ncn2CC[C@@H](O)CO)c(=O)[nH]1", "read by": "plaque count", "strain": "C915 TK-", "read-out": "EC50", "cell line": "VERO", "value": "420 µM"}
{"compound": "CCCc1cn([C@H]2C[C@H](O)[C@@H](CO)O2)c(=O)[nH]c1=O", "read by": "cytopathic effect", "strain": "KOS", "read-out": "EC50", "cell line": "BSC-1", "value": "15 µg/mL"}
{"compound": "N#Cc1cc([C@H]2C[C@H](O)[C@@H](CO)O2)c(F)cc1F", "read by": "cytopathic effect", "strain": "KOS/ACV-R", "read-out": "EC50", "cell line": "E6SM", "value": ">400 µg/mL"}
{"compound": "COc1ccc(-c2[nH]c3nc4c(ncn4COCCO)c(=O)n3c2-c2ccc(C(c3ccccc3)c3ccccc3)cc2)cc1", "read by": "cytopathic effect", "strain": "McIntyre", "read-out": "EC50", "value": ">16 µg/mL"}

The first 4 rows once more:

O=c1c2ncn(COCCO)c2[nH]c2ncc(C(c3ccccc3)(c3ccccc3)c3ccccc3)n12 ; read by: cytopathic effect ; strain: TK-deficient acyclovir-resistant ; read-out: EC50 ; value: >16 µg/mL
Nc1nc2c(ncn2COC(CO)CO)c(=O)[nH]1 ; read by: plaque count ; read-out: EC50 ; cell line: VERO ; value: 0.57 µM
OC[C@H]1O[C@@H](c2ccc(F)cc2F)C[C@@H]1O ; read by: cytopathic effect ; strain: VMW 1837 ; read-out: EC50 ; cell line: E6SM ; value: >400 µg/mL
Nc1ccnc(O[C@H]2CO[C@H](CO)[C@@H](O)C2)n1 ; read by: cytopathic effect ; strain: KOS ; read-out: EC50 ; cell line: E6SM ; value: >20 µg/mL